According to the supplement of paper PMC9931576:
Human monoclonal antibodies against the spike receptor-binding domain (heavy:light variable regions). IC50 against pseudoviruses bearing the spike of naturally observed variants; lower = stronger; >10 µg/ml means not reached at the top dose. No active / inactive call. The stated detection limit is 0.0005 µg/ml; values near or below 0.001 µg/ml lie at the floor of the assay.

B1: BD57-087 (protein)
chain 1: QVQLVQSGAEVKKPGSSVKVSCKASGGTFSSDSITWVRQAPGQGLEWMGRVIPTLGVAYYAQNFQGRVTITADRSTSTAYMELSSLRSDDTAVYYCARESAVRGINTVWFDPWGQGTLVTVSS
chain 2: QSVLTQPPSVSGAPGQRVTISCTGSNSNIGAGYDVHWYQHLPGRAPKLLIYGNSNRPSGVPDRFSGSKSDTSASLAITGLLPEDEADYYCQSYDSSLSDSIFGGGTKLAVL
B2: BD56-016 (protein)
chain 1: EVQLVESGGGLVQPGGSLRLSCVASGFTFSSYWMHWVRQAPGKGLVWVSRIHPDGTFTSYAESVKGRFSISRDNAKNTLYLQMNSLRAEDTALYYCARDYDILTNYYSADPDVFDIWGQGTMVTVSS
chain 2: DIVMTQSPDSLPVSLGERATINCKSSQSILYSSNNKNYLAWYQQKPGQPPKLLIYWASTRESGVPDRFSGSGSGTEFTLTISTLQAEDVAVYYCQQYYNPPYTFGQGTKLEIK
B3: BD56-014 (protein)
chain 1: QVQLQESGPGLVKSSETLSLTCTVSGASISVYYWSWIRQPPGKGLEWIGYIYKSDKTNYNPSLKSRVTILEGPSRNQFSLKLNSVTAADTAVYYCARHGWTDTLTGYPYDAFDSWGQGTLVTVSS
chain 2: EIVMTQSPATLSASPGERVTLSCRASQSVSSDLAWYQQKPGQAPRLLIYDASSRATGFPARFSGSGSGTEFTLTVSSLQSEDFVVYYCQQYTEWPYTFGQGTKLEIK
B4: BD56-006 (protein)
chain 1: EVQLVESGGGLVRPGGSLRVSCAASEIIVSRNYMSWVRQAPGKGLEWVSLLYSGGSTFYADSVKGRFTISRDNSKNTLYLQMSSLTAEDTAVYYCARGGRGGPDAFDSWGQGTLVTVSS
chain 2: IQLTQSPSSLSASVGDRVTITCRASQGIGNYLAWYLQKPGKAPKLLIYAASTLQSGVPSRFSGSGSGTDFTLTISSLQPEDFATYYCQLLDSYPPSTFGQGTKLEIK
B5: BD57-099 (protein)
chain 1: EVQLVESGGGLVQPGRSLRLSCAASGFTFDDYAMHWVRQAPGKGLEWVSGISWNGGIIGYTDSAKGRFTISRDNAKNSLYLQMISLRAEDTAFYYCAKDLYYHDSIGYDAFDIWGQGALVTVSS
chain 2: QSALTQPASVSGSPGQSITISCTGTSSDVGGYNYVSWYQQHSGKAPKLMMFDVTNRPSGVSNRFSGSKSGNTASLTISGLQAEDEADYYCSSYTSSSSVVFGGGTKLTVL
B6: BD56-013 (protein)
chain 1: QVQLVQSGTEVKKPGASVKVSCKASGYTFTTFGISWVRQAPGQGLEWMGWTSPNNDKTRYAQKLQGRVSMTTDTPASTAYLELRSLRSDDTAVYYCARDNRGGNDFLDYWGQGTLVTVSS
chain 2: DIQMTQSPSTLSASVGDRVTITCRASQSISPWLAWYQQKPGKAPKLLIYRASSLESGVPSRFSGSGSGTEFTLTISSLQPDDFATYHCHQYNTYPYTFGQGTKLDIK
B7: BD57-088 (protein)
chain 1: QVQLVESGGGVVQPGRSLRLSCAASGFTFSSYAIHWVRQAPGKGLEWVAVISDDGVAKFYADSVKGRFTISRDNSKKTLYLQMNSLRAEDTAVYYCARDGERRTWVFDFWGQGTLVTVSS
chain 2: DIQMTQSPSSLSASVGDRLTITCRASQSISSYVNWYQQKPGKAPKLLIYAASSLQSGVPSRFSGSGSGTDFTLTISSLQPEDFATYYCQQTYSTPPGTFGQGTKVEIQ
B8: BD56-015 (protein)
chain 1: EVQLVESGGGLVQPGGSLRLSCAASEFIVSRNYMSWVRQAPGKGLEWVSVIYPGGSTFYADSVKGRFTISRDNSKNTLYLQMNSLRAEDTAVYFCARDFGDQYFDYWGPGTLLTVSS
chain 2: EIVLTQSPGTLSLSPGDRATLSCRASQSVSSYLAWYQQKPGQAPRLLIYGASSRATGIPDRFSGSGSGTDFTLTISRLEPEDFAVYYCQQYGTSPRTFGQGTKLEIK
B9: BD57-078 (protein)
chain 1: EVQLVESGGGLVQPGRSLRLSCAASGFTFDDYAMHWVRQTPGQGLEWVSGVTWNSGTIGYTDSVKGRFTISRDNAKNSLFLQMNRLRVEDTAFYYCVKDMGVKSLWWEKEYYGMDVWGQGTTVTVSS
chain 2: QSVLTQPPSVSAAPGQKVTISCSGSSSNIGNNYVSWFRQLPGTAPKLLIYDNNKRPSGIPDRFSGSKSGTSATLGITGLQTGDEADYYCGTWDSSLSVYVFGTGTKVTVL
B10: BD56-001 (protein)
chain 1: EVQLVESGGGLVQPGGSLTLSCAASGLSVSRNYMIWVRQAPGKGLEWVSVIYSGGTTFYADSVKGRFTISRDNSKNTLFLQMNSLRAEDTAVYFCARDLGIAGAIDRWGQGTLVTVSS
chain 2: DIQLTQSPSFLSASVGDRVTITCRASQGIGSYLAWYQQKPGKAPKLLIYAASTLQSGVPSRFSGSGSGAEFILTITSLQPEDFATYYCQELNSEYFTFGPGTKVEIK
B11: BD57-093 (protein)
chain 1: EVQLVESGGGVVQPGGSLRLSCVASGFMFEDYAMHWVRQVPGKGLEWVSVIDRDGGGTFYPDSVKGRFTVSRDNSKKSLYLQMSSLRTEDTAFYFCVKDVDIDISLVTVFDYWGQGTLVTVSS
chain 2: DIQMTQSPSSLSASVGDRVTITCRASQSISTYLNWYQQKSGKAPKLLIYAASSLQSGVPSRFSGSGSGTDFTLTISSLQPEDFATYYCQQSYITPPLTFGGGTKVDLK
B12: BD56-005 (protein)
chain 1: QVQLVQSGAEVRKPGASVKVSCKASGYIFTGYYIHWVRQAPGQGLEWMGWMNPNSGDTTYAQKFQGRVTMTRDTSINTANMELNRLRSDDTAVYYCFRGCGGDCYPDAEYFQHWGQGTLVTVSS
chain 2: DIQMTQSPSSLSASVGDRVTITCRASQSINRYLNWYQQKPGKAPKLLIYAASSLQSGVPSRFSGSGSGTDFTLTINTLQPEDFATYYCQQSHSAPPLTFGGGTKVEIK
B13: BD57-085 (protein)
chain 1: EVQLVQSGAEVKKPGESLRISCKGSGYIFISYWINWVRQMPGKGLEWMGKIDPSDSYTNYSPSLQGHVTISADKSISTVYLQWSSLKASDTAMYYCATSEVWGQGTLVTVSS
chain 2: NFMLTQPHSVSESPGKTVTISCTRSSGSIASNYVQWYQQRPGSSPITVIYEDNQRPSGVPDRFSGSIDSSSNSASLTISGLKTEDEADYYCQSYDSSNTVFGGGTKLTVL

biological target: SARS-CoV-2 Omicron BA.1 spike pseudovirus; experiment: pseudovirus neutralization IC50; higher = weaker neutralization
Method: (§1)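 Single-round VSV luciferase pseudovirus mixed with antibody dilutions for 1 h and put on Huh-7 cells for about a day; IC50 from the dose curve.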

Compared with B1, B2 is 33-fold lower in “pseudovirus neutralization IC50” value: 0.144 µg/mL for the first, 0.00438 µg/mL for the second.

Going from B3 to B4, the “pseudovirus neutralization IC50” value falls from 0.159 µg/mL to 0.0145 µg/mL (11-fold).

First: B5
Second: B6
The “pseudovirus neutralization IC50” value of the first is lower: 0.21 µg/mL for the first, > 10 µg/mL for the second.

Compared with B7, B8 is 440-fold lower in “pseudovirus neutralization IC50” value: 5.87 µg/mL for the first, 0.0132 µg/mL for the second.

First: B9
Second: B10
The “pseudovirus neutralization IC50” value of the first is 79-fold lower: 0.0341 µg/mL for the first, 2.7 µg/mL for the second.

Going from B11 to B12, the “pseudovirus neutralization IC50” value falls from > 10 µg/mL to 0.0738 µg/mL.

In the case of B13, the “pseudovirus neutralization IC50” value is reported as 0.0136 µg/mL.

biological target: SARS-CoV-2 Omicron BA.2 spike pseudovirus; experiment: as above
Method: as §1

First: B1
Second: B2
The “pseudovirus neutralization IC50” value of the first is 19-fold higher: 0.0733 µg/mL for the first, 0.00388 µg/mL for the second.

First: B3
Second: B4
The “pseudovirus neutralization IC50” value of the first is 17-fold higher: 0.258 µg/mL for the first, 0.0153 µg/mL for the second.

Going from B5 to B6, the “pseudovirus neutralization IC50” value rises from 0.169 µg/mL to > 10 µg/mL.

Compared with B7, B8 is 450-fold lower in “pseudovirus neutralization IC50” value: 4.97 µg/mL for the first, 0.0111 µg/mL for the second.

First: B9
Second: B10
The “pseudovirus neutralization IC50” value of the first is 61-fold lower: 0.046 µg/mL for the first, 2.81 µg/mL for the second.

Going from B11 to B12, the “pseudovirus neutralization IC50” value falls from > 10 µg/mL to 0.047 µg/mL.

B13 was tested, and the “pseudovirus neutralization IC50” value was 0.251 µg/mL.

biological target: SARS-CoV-2 Omicron BA.2.75 spike pseudovirus; experiment: as above
Method: as §1

Compared with B1, B2 is 12-fold lower in “pseudovirus neutralization IC50” value: 0.0585 µg/mL for the first, 0.00485 µg/mL for the second.

Compared with B3, B4 is higher in “pseudovirus neutralization IC50” value: 0.227 µg/mL for the first, > 10 µg/mL for the second.

Compared with B5, B6 is higher in “pseudovirus neutralization IC50” value: 0.131 µg/mL for the first, > 10 µg/mL for the second.

Going from B7 to B8, the “pseudovirus neutralization IC50” value falls from 5.38 µg/mL to 0.594 µg/mL (9.1-fold).

First: B9
Second: B10
The “pseudovirus neutralization IC50” value of the first is 2.3-fold lower: 0.0385 µg/mL for the first, 0.0896 µg/mL for the second.

First: B11
Second: B12
The “pseudovirus neutralization IC50” value of the first is higher: > 10 µg/mL for the first, 0.00229 µg/mL for the second.

For B13, the “pseudovirus neutralization IC50” value was 0.011 µg/mL.

biological target: SARS-CoV-2 Omicron BA.5 spike pseudovirus; experiment: as above
Method: as §1

Going from B1 to B2, the “pseudovirus neutralization IC50” value falls from > 10 µg/mL to 0.00277 µg/mL.

Going from B3 to B4, the “pseudovirus neutralization IC50” value falls from > 10 µg/mL to 0.0165 µg/mL.

First: B5
Second: B6
The “pseudovirus neutralization IC50” value of the first is lower: 2.8 µg/mL for the first, > 10 µg/mL for the second.

First: B7
Second: B8
The “pseudovirus neutralization IC50” value of the first is 380-fold higher: 4.64 µg/mL for the first, 0.0121 µg/mL for the second.

Compared with B9, B10 is 5.9-fold higher in “pseudovirus neutralization IC50” value: 0.434 µg/mL for the first, 2.57 µg/mL for the second.

Compared with B11, B12 is lower in “pseudovirus neutralization IC50” value: > 10 µg/mL for the first, 0.173 µg/mL for the second.

With B13 the “pseudovirus neutralization IC50” value was 0.494 µg/mL.

biological target: SARS-CoV-2 Omicron BQ.1.1 spike pseudovirus; experiment: as above
Method: as §1

B1 and B2 cannot be ordered by “pseudovirus neutralization IC50” value: > 10 µg/mL for the first, > 10 µg/mL for the second.

B3 and B4 cannot be ordered by “pseudovirus neutralization IC50” value: > 10 µg/mL for the first, > 10 µg/mL for the second.

B5 and B6 cannot be ordered by “pseudovirus neutralization IC50” value: > 10 µg/mL for the first, > 10 µg/mL for the second.

Going from B7 to B8, the “pseudovirus neutralization IC50” value rises from 9.34 µg/mL to > 10 µg/mL.

B9 and B10 cannot be ordered by “pseudovirus neutralization IC50” value: > 10 µg/mL for the first, > 10 µg/mL for the second.

B11 and B12 cannot be ordered by “pseudovirus neutralization IC50” value: > 10 µg/mL for the first, > 10 µg/mL for the second.

With B13 the “pseudovirus neutralization IC50” value was > 10 µg/mL.

biological target: SARS-CoV-2 Omicron XBB spike pseudovirus; experiment: as above
Method: as §1

Going from B1 to B2, the “pseudovirus neutralization IC50” value rises from 5.48 µg/mL to > 10 µg/mL.

B3 and B4 cannot be ordered by “pseudovirus neutralization IC50” value: > 10 µg/mL for the first, > 10 µg/mL for the second.

B5 and B6 cannot be ordered by “pseudovirus neutralization IC50” value: > 10 µg/mL for the first, > 10 µg/mL for the second.

Going from B7 to B8, the “pseudovirus neutralization IC50” value rises from 6.25 µg/mL to > 10 µg/mL.

B9 and B10 cannot be ordered by “pseudovirus neutralization IC50” value: > 10 µg/mL for the first, > 10 µg/mL for the second.

B11 and B12 cannot be ordered by “pseudovirus neutralization IC50” value: > 10 µg/mL for the first, > 10 µg/mL for the second.

In the case of B13, the “pseudovirus neutralization IC50” value is reported as > 10 µg/mL.

biological target: SARS-CoV-2 early D614G spike pseudovirus; experiment: as above
Method: as §1

First: B1
Second: B2
The “pseudovirus neutralization IC50” value of the first is 140-fold higher: 0.19 µg/mL for the first, 0.0014 µg/mL for the second.

B3 and B4 are within 1.5-fold of each other in “pseudovirus neutralization IC50” value: 0.00434 µg/mL for the first, 0.00633 µg/mL for the second.

Compared with B5, B6 is 8.8-fold higher in “pseudovirus neutralization IC50” value: 0.172 µg/mL for the first, 1.52 µg/mL for the second.

First: B7
Second: B8
The “pseudovirus neutralization IC50” value of the first is 37-fold higher: 0.877 µg/mL for the first, 0.0235 µg/mL for the second.

B9 and B10 are within 1.5-fold of each other in “pseudovirus neutralization IC50” value: 0.0282 µg/mL for the first, 0.0193 µg/mL for the second.

Going from B11 to B12, the “pseudovirus neutralization IC50” value falls from > 10 µg/mL to 0.0025 µg/mL.

With B13 the “pseudovirus neutralization IC50” value was 0.154 µg/mL.
